# Source: article PMC5735676, “Leishmania braziliensis SCD6 and RBP42 proteins, two factors with RNA binding capacity”
# Key:
# [1] = molecular target: T1, rLbRBP42 (Leishmania braziliensis) (UniProt A4HIP3); assay: EMSA; details: direct, digoxigenin-labeled antisense lane; EMSA: 10 mM HEPES pH 7.3, 20 mM KCl, 6 mM MgCl2, 1 mM DTT, 0.05% NP-40, 1 ug/ul heparin, 40 U RNaseOUT, room temperature 20 min, 6% native PAGE 0.5x TBE; recombinant protein; residues 1-338
# T1 sequence (looked up): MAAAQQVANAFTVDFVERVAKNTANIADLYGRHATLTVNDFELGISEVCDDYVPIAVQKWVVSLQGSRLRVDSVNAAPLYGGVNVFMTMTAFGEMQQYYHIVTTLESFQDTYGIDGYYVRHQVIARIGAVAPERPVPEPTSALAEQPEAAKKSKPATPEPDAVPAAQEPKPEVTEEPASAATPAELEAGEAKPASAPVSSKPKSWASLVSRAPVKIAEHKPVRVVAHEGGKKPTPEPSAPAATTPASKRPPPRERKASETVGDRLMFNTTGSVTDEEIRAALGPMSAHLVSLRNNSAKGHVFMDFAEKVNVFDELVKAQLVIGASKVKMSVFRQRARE
# [2] = molecular target: T2, rLbSCD6 (Leishmania braziliensis) (UniProt A4HEG4); assay: EMSA; details: direct, digoxigenin-labeled antisense lane; EMSA: 10 mM HEPES pH 7.3, 20 mM KCl, 6 mM MgCl2, 1 mM DTT, 0.05% NP-40, 1 ug/ul heparin, 40 U RNaseOUT, room temperature 20 min, 6% native PAGE 0.5x TBE; recombinant protein; residues 1-294
# T2 sequence (looked up): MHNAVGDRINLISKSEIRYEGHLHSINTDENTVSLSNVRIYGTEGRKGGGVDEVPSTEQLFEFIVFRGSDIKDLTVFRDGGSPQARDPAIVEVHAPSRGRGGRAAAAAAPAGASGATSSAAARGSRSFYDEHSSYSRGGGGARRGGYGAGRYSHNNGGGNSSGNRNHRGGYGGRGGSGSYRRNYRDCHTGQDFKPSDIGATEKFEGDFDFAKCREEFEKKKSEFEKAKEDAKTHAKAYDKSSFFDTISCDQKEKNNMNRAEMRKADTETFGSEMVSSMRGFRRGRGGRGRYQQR
sequence,measurement,setting,value
UACAGAAAAUAAAAAAACACACACAAAAUAUAAAAAGAGGAAAGCAUGAUU [3' UTR-II.1 antisense],binding result,[1],no binding
same,binding result,[2],no binding

# A negative result means that nothing was seen under these conditions. At least one verdict was read from the data and is not stated in words by the source. Tags and fusion partners may be left off the protein sequences shown.
